Experiments:
[1] = system: Mycobacterium tuberculosis variant bovis; test: Antibacterial activity against Mycobacterium bovis BCG harboring pTIC6-fbpC overexpressing Ag85C assessed as fold increase in MIC by end point resazurin assay relative to empty vector control
[2] = system: Mycobacterium tuberculosis variant bovis; test: Antibacterial activity against Mycobacterium bovis BCG harboring pTIC6-fbpB overexpressing Ag85B assessed as fold increase in MIC by end point resazurin assay relative to empty vector control

SMILES | fold change (FC) [1] | fold change (FC) [2]
O=c1c2ccccc2[se]n1-c1ccccc1 | 3 | 3
CNC[C@@H]1C[C@H](c2ccc(OC(F)(F)F)cc2)N1Cc1ccccc1OC(F)(F)F | 2 | 2
Brc1cc(Br)cc([C@H]2C[C@@H](CN3CCCC3)N2Cc2ccccc2Br)c1 | 2 | 2
